# Measurements reported in PubChem BioAssay AID1259414 (Drosophila RNAi Screening Center, 2018).
# Purpose: 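Host factors increasing or decreasing Wolbachia levels in cultured fly cells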 (primary screen)
# Cell system: Drosophila JW18 cells infected with Wolbachia
# Reagents: long dsRNA against Drosophila genes, 0.25 µg dsRNA per well of a 384-well plate
# Timing: 5 days
# Conditions: cells persistently infected with Wolbachia before knock-down; no added drug
# Detection: 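Imaged fluorescence in situ signal for Wolbachia 23S rRNA per DAPI-counted host cell, given as a robust z-score within each plate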
# Reading the numbers: Wolbachia per cell robust z: higher = more Wolbachia per host cell than the plate typical
# Active means: 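Active if absolute robust z reaches 1.5 in two or more of three replicates, leaving out multi- or no-target dsRNAs, genes unexpressed in JW18 and A1 wells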
# The screen tested about 24,000 reagents; this is a random part of those that have a named target and a result. Over the whole deposit, about 1,210 (5%) were called active. 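Inactive calls also include excluded dsRNAs with several or no targets, genes unexpressed in JW18, and well A1, regardless of score.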 Entries without a mark were called inactive. The numbers tell different reagents against one gene apart. Names joined by + are all predicted targets of the reagent.
predicted target,reagent,"Wolbachia per cell robust z, rep 1","Wolbachia per cell robust z, rep 2","Wolbachia per cell robust z, rep 3"
Sec61beta (Sec61 beta subunit),1,-0.578,-0.744,0.118
Sec61beta (Sec61 beta subunit),2,-1.72 (active),-0.213,-1.69
Sec61beta (Sec61 beta subunit),3,0.0853,-0.379,2.34
lab (labial),1,0.21,0.447,0.289
lab (labial),2,0.0752,-1.63,-0.815
TER94 (Transitional endoplasmic reticulum 94),1,0.484,-0.9,0.289
TER94 (Transitional endoplasmic reticulum 94),2,-0.557,0.65,0.682
LysB (Lysozyme B),1,0.339,-0.0244,-0.488
CG32409,1,0.348,-0.347,-2.07
CG32409,2,-1.01,-0.423,0.365
CG31921,1,-0.632,-1.06,-0.191
CG34295,1,-0.327,-0.655,-1.24
Cpr62Ba (Cuticular protein 62Ba),1,0.711,1.07,0.665
CG30393,1,-1.01,0.07,-0.487
CG30393,2,0.356,0.875,1.03
LTV1 (LTV1 ribosome biogenesis factor),1,-0.836,-1.35,-0.106
CG42481,1,0.281,-0.289,-0.998
CG10510,1,-2.44,-0.125,-0.792
Galk (Galactokinase),1,1.13,-3.13,0.115
Galk (Galactokinase),2,0.92,0.902,-0.0276
eIF5B (eukaryotic translation initiation factor 5B),1,0.893,-0.174,-0.125
eIF5B (eukaryotic translation initiation factor 5B),2,0.16,-0.645,1.48
eIF5B (eukaryotic translation initiation factor 5B),3,-0.743 (active),-2.09,-1.59
Cdk5alpha (Cdk5 activator-like protein),1,0.468,0.169,0.722
Cdk5alpha (Cdk5 activator-like protein),2,-1.56,-0.0223,-0.233
Mob4 (MOB kinase activator 4),1,2.21 (active),1.39,1.97
Mob4 (MOB kinase activator 4),2,0.967,1.22,1.54
Nop60B (Nucleolar protein at 60B),1,-0.633,0.65,-0.418
dind (diamond),1,-0.317,-0.228,0.739
dind (diamond),2,-0.556,-1.02,-2.31
CG14491,1,-0.153,0.561,-1.63
CG14491,2,0.443,0.827,0.584
aph-1 (anterior pharynx defective 1),1,-0.0572,-0.754,0.672
mtrm (matrimony),1,-2.39,0.47,0.163
CG13315,1,-0.614,0.0216,-1.63
lncRNA:CR33942 (long non-coding RNA:CR33942),1,0.811,0.114,-0.117
lncRNA:CR33942 (long non-coding RNA:CR33942),2,-0.662,-0.297,1.69
CG13869 + CG11099,1,0.46,-1.93,0.832
Dp1 (Dodeca-satellite-binding protein 1),1,-0.095,-0.87,-0.0988
Ranbp16,1,0.776,0.694,-0.0999
CG17724,1,0.675,-6.33,-0.185
CG17724,2,0.85,0.594,0.457
CG13282,1,0.141,-0.856,-0.743
CG14605,1,0.16,0.623,1.03
CG14605,2,1.01,-0.593,1.02
Or85d (Odorant receptor 85d),1,-5.85,-1.06,0.23
Or85d (Odorant receptor 85d),2,0.059,0.177,1.54
CG14630,1,0.634,-0.148,-1.5
CG14630,2,0.583,-0.857,-0.372
CG14186,1,-1.83,-0.274,-0.086
CG14186,2,-0.396,-0.98,-0.391
CG4972,1,0.221,0.553,-0.00552
Arv1 (ACAT-related protein required for viability 1),1,0.58,-0.382,0.302
CG11839,1,0.826,0.432,-0.108
hfp (half pint),1,-0.0973,0.352,-0.0132
hfp (half pint),2,-0.842,-0.302,0.467
hfp (half pint),3,0.386,0.871,-0.0452
hfp (half pint),4,1.33,0.853,1.5
CG44836,1,0.861,-0.809,-0.791
CG44836,2,0.68,-0.0773,-0.386
CG44836,3,-0.154,-0.288,0.736
Rhau (RHAU helicase),1,0.334,-0.284,-1.3
Rhau (RHAU helicase),2,0.173,0.284,1.86
nwk (nervous wreck),1,0.526,-8.03,0.0377
nwk (nervous wreck),2,-2.83,-0.0127,-0.354
nwk (nervous wreck),3,-2.22,-0.176,-7.31
trk (trunk),1,0.967,-3.31,0.796
CG15145,1,0.983,0.0253,-0.841
CG15145,2,0.0906,-0.689,-0.02
Nca (Neurocalcin),1,-1.47,-1.43,-0.581
Cul3 (Cullin 3),1,0.54,0.729,-3.1
Cul3 (Cullin 3),2,-0.844,-1.18,-0.152
Cul3 (Cullin 3),3,-0.0527,0.391,-0.331
Cul3 (Cullin 3),4,2.32,1.41,0.997
CG15747,1,0.384,0.91,-0.274
CG15747,2,-0.561,-0.376,-1.04
TfIIB (Transcription factor IIB),1,0.241,-1.99,0.515
loopin-1,1,-0.681,-0.997,0.0432
loopin-1,2,-2.25,0.716,-1.28
CG14650,1,-0.931,0.196,1.26
CG14650,2,-2.11,-0.0263,0.646
"ATPsynepsilonL (ATP synthase, epsilon subunit-like)",1,0.46,0.419,-0.0515
"ATPsynepsilonL (ATP synthase, epsilon subunit-like)",2,0.0384,-0.26,0.482
CG17734,1,-0.978,-2.85,-2.23
CG17734,2,1.39,1.3,0.69
GstE12 (Glutathione S transferase E12),1,-0.197,-0.511,1.38
GstE12 (Glutathione S transferase E12),2,-0.797,-0.205,-0.63

Sorted by “Wolbachia per cell robust z, rep 1” (descending): 8 of the entries above
predicted target,reagent,"Wolbachia per cell robust z, rep 1","Wolbachia per cell robust z, rep 2","Wolbachia per cell robust z, rep 3"
hfp (half pint),4,1.33,0.853,1.5
CG44836,1,0.861,-0.809,-0.791
CG44836,2,0.68,-0.0773,-0.386
hfp (half pint),3,0.386,0.871,-0.0452
Rhau (RHAU helicase),1,0.334,-0.284,-1.3
hfp (half pint),1,-0.0973,0.352,-0.0132
CG44836,3,-0.154,-0.288,0.736
hfp (half pint),2,-0.842,-0.302,0.467
